This is a selection; strong and weak results do not stand in their true shares. Calls of active or inactive are those of the source.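 Rule for the calls: active = inhibition above a per-plate cutoff of the control wells' mean inhibition plus 3 SD (cut at about 5.5% in these data); inactive = the rest.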
The compounds below were run on methionyl-tRNA synthetase (Trypanosoma brucei brucei) (assay: inhibition of trypanosome methionyl-tRNA synthetase – biochemical, luminescence, primary screen (AID 624268;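 note: 0% = DMSO wells median and 100% = median of wells with control inhibitor compound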)). Conditions: purified T. brucei MetRS, ATP depletion, Kinase-Glo luminescence; at 11.9 µM; hits give high values.
Summary of the method: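 Test system – parasite MetRS enzyme · Reagent – substrates ATP, L-methionine and bulk Escherichia coli tRNA · Doses – 11.9 µM compound single dose, 0.9% DMSO · Times – 15 min enzyme-compound preincubation, 2 h reaction, 10 min detection, 25 °C · Signal – Kinase-Glo luminescence, ATP depletion format · Controls – DMSO-only wells as low control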
In the case of `COc1ccccc1OP(C)(=O)Nc1ccccc1` (centres undefined), the inhibition is reported as inactive: -0.64%. In the case of `CP(=O)(Nc1ccccc1Br)Oc1ccccc1` (centres undefined), the inhibition is reported as inactive: 0.44%. With `CP(=S)(Nn1cnnc1)Oc1ccccc1` (centres undefined) the inhibition was inactive: -1.48%. For `CP(=O)(Nc1ccccn1)Oc1ccc(Cl)cc1` (centres undefined), the inhibition was inactive: -1.22%. For `CCOP(C)(=S)SCC(=O)NC(C)C(=O)O` (centres undefined), the inhibition was inactive: -0.28%. In the case of `O=[N+]([O-])c1cc([N+](=O)[O-])c(O)c([N+](=O)[O-])c1.c1ccc(Oc2ccncc2)cc1`, the inhibition is reported as inactive: 1.37%. In the case of `CCOC(=O)c1ccc(NP(C)(=O)Oc2ccc(OC)cc2)cc1` (centres undefined), the inhibition is reported as inactive: 0.46%. In the case of `Cc1cc(C)cc(OP(C)(=O)Nc2ccc(SC(F)(F)F)cc2)c1` (centres undefined), the inhibition is reported as inactive: -1.5%. `CCc1ccc(OP(C)(=O)N2CCN(c3ccc([N+](=O)[O-])cc3)CC2)cc1` (centres undefined) was tested, and the inhibition was inactive: 0.11%. With `CP(=O)(NC(=O)Nc1ccccc1)Oc1ccccc1` (centres undefined) the inhibition was inactive: -1.37%. With `CP(=O)(Oc1ccccc1)OC(c1ccccc1)C(F)(F)F` (centres undefined) the inhibition was inactive: -0.41%. With `CP(=O)(Nc1ccc(SC(F)(F)F)cc1)Oc1ccc(Cl)cc1` (centres undefined) the inhibition was inactive: -0.13%. `Cc1ccc(Nc2c([N+](=O)[O-])cc([N+](=O)[O-])cc2[N+](=O)[O-])cc1` was tested, and the inhibition was inactive: 0.04%. For `Cc1cccc(C)c1OP(C)(=O)Nc1ccc(SC(F)(F)F)cc1` (centres undefined), the inhibition was inactive: 0.14%. For `COc1ccccc1-c1ccccn1.O=[N+]([O-])c1cc([N+](=O)[O-])c(O)c([N+](=O)[O-])c1`, the inhibition was inactive: -0.09%. With `CCN(CC)CCCOC(=O)C(O)(c1ccccc1)c1ccccc1` the inhibition was inactive: -0.75%. In the case of `COc1ccc(OP(C)(=O)Nc2cccc(F)c2)cc1` (centres undefined), the inhibition is reported as inactive: -0.36%. In the case of `COc1ccccc1OP(C)(=O)Nc1cc(Cl)ccc1C` (centres undefined), the inhibition is reported as inactive: 0.13%. For `Cc1cc(C)cc(OP(C)(N)=O)c1` (centres undefined), the inhibition was inactive: -0.64%. For `CCOC(=O)c1ccc(NP(C)(=O)Oc2ccccc2)cc1` (centres undefined), the inhibition was inactive: -0.81%. `Cc1ccc(NP(C)(=O)Oc2ccccc2)c(C)c1` (centres undefined) was tested, and the inhibition was inactive: 0.2%. `COc1ccccc1OP(C)(=O)Nc1ccc(C)cc1` (centres undefined) was tested, and the inhibition was inactive: -1%. In the case of `Cc1cccc(C)c1OP(C)(N)=O` (centres undefined), the inhibition is reported as inactive: -0.52%. `CC(C)(C)c1ccc(OP(C)(=O)Nc2ccc(SC(F)(F)F)cc2)cc1` (centres undefined) was tested, and the inhibition was inactive: -0.2%. With `O=[N+]([O-])c1ccc2c(c1)C=Nc1ccccc1O2` the inhibition was inactive: -0.86%. For `O=[N+]([O-])c1cc([N+](=O)[O-])c(Nc2cccnc2)c([N+](=O)[O-])c1`, the inhibition was inactive: 0.22%. For `CC1=NCCc2c1[nH]c1ccccc21.O=[N+]([O-])c1cc([N+](=O)[O-])c(O)c([N+](=O)[O-])c1`, the inhibition was inactive: 0.41%. `O=C(O)c1cccc(Nc2c([N+](=O)[O-])cc([N+](=O)[O-])cc2[N+](=O)[O-])c1` was tested, and the inhibition was inactive: 0.55%. `CP(=O)(Nc1cccc(Br)c1)Oc1ccccc1` (centres undefined) was tested, and the inhibition was inactive: -0.21%. For `Cc1cc(C)cc(OP(C)(=O)Nc2ccccn2)c1` (centres undefined), the inhibition was inactive: -0.95%. For `Cc1ccc(C)c(NP(C)(=O)Oc2ccccc2)c1` (centres undefined), the inhibition was inactive: -1.69%. In the case of `Cc1cc(C)cc(OP(C)(=O)Nc2ccc(C)cc2C)c1` (centres undefined), the inhibition is reported as inactive: 0.02%. In the case of `CCOC(=O)c1ccc(NP(C)(=O)Oc2cc(C)cc(C)c2)cc1` (centres undefined), the inhibition is reported as inactive: 0.23%. For `COc1ccccc1OP(C)(=O)Nc1cccc(Br)c1` (centres undefined), the inhibition was inactive: 0.66%. In the case of `Cc1nc2ccc3ccccc3c2s1.O=[N+]([O-])c1cc([N+](=O)[O-])c(O)c([N+](=O)[O-])c1`, the inhibition is reported as inactive: 0.27%. In the case of `O=[N+]([O-])c1cc([N+](=O)[O-])c(-c2cnn(-c3ccccc3)c2)c([N+](=O)[O-])c1`, the inhibition is reported as inactive: 0.36%. For `CN(Cc1cccnc1)C(=O)COc1ccc(Cl)c(Cl)c1.O=[N+]([O-])c1cc([N+](=O)[O-])c(O)c([N+](=O)[O-])c1`, the inhibition was inactive: -0.66%. With `O=[N+]([O-])c1cc([N+](=O)[O-])c(-n2nnc3ccccc32)c([N+](=O)[O-])c1` the inhibition was inactive: -1.34%. `CP(=O)(Nc1ccc(SC(F)(F)F)cc1)Oc1ccccc1` (centres undefined) was tested, and the inhibition was inactive: -0.06%. For `CCCOc1ccc(NP(C)(=O)Oc2ccc(Cl)cc2)cc1` (centres undefined), the inhibition was inactive: -0.11%. With `COc1ccc(-c2ccccn2)cc1.O=[N+]([O-])c1cc([N+](=O)[O-])c(O)c([N+](=O)[O-])c1` the inhibition was inactive: -0.64%. `CN1CCCCC1COC(=O)C1(O)c2ccccc2CCc2ccccc21` (centres undefined) was tested, and the inhibition was inactive: -0.94%. For `COc1ccccc1OP(C)(=O)Nc1c(C)cccc1C` (centres undefined), the inhibition was inactive: -0.08%. `CCOC(=O)C(CC)C1=NC(C)(C)Cc2ccccc21.O=[N+]([O-])c1cc([N+](=O)[O-])c(O)c([N+](=O)[O-])c1` (centres undefined) was tested, and the inhibition was inactive: 0.61%. In the case of `O=[N+]([O-])c1cc([N+](=O)[O-])c(Nc2nnnn2CCO)c([N+](=O)[O-])c1`, the inhibition is reported as inactive: -0.1%. With `CC1=C2N=C(C=C3N=C(C(C)=C4[N-][C@@](C)([C@@H]5N=C1[C@](C)(CCC(=O)NC[C@@H](C)OP(=O)([O-])O[C@H]1[C@@H](O)[C@@H](n6cnc7cc(C)c(C)cc76)O[C@@H]1CO)[C@H]5CC(N)=O)[C@@](C)(CC(N)=O)[C@@H]4CCC(N)=O)[C@@](C)(CC(N)=O)[C@@H]3CCC(N)=O)C(C)(C)[C@@H]2CCC(N)=O.[C-]#N.[Co+3]` the inhibition was inactive: 2.66%. `Cc1c(C(c2ccc3c(c2)OCO3)c2c(C)n(C)n(-c3ccccc3)c2=O)c(=O)n(-c2ccccc2)n1C.O=[N+]([O-])c1cc([N+](=O)[O-])c(O)c([N+](=O)[O-])c1` was tested, and the inhibition was inactive: 0.04%. For `Cc1cc(-c2cccc3ccccc23)c(C)cn1.O=[N+]([O-])c1cc([N+](=O)[O-])c(O)c([N+](=O)[O-])c1`, the inhibition was inactive: -0.09%. For `O=[N+]([O-])c1cc([N+](=O)[O-])c(NCC2CCS(=O)(=O)C2)c([N+](=O)[O-])c1` (centres undefined), the inhibition was inactive: 0.1%.
